The filed quantity is “Percent Effect” (%).
The controls that fix the scale are not given in the record; negative values are as filed.
The entries come from a sample that favours strong results.
Two or more numbers in one place are separate tests of the same structure; such repeats can differ widely.
A dash means the value is not listed here; it may have been measured.

Mtb glucose medium: 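Phenotypic screen: M. tuberculosis growth, glucose 7H9 medium, 3 days; the read-out is not stated. Concentration: 50 µM. Direction is inferred from retests: higher values go with more growth inhibition. Size under these conditions: about 69,000 compounds, about 760 of them at 50% or above in at least one test.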
Mtb cholesterol medium: 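Whole-cell growth test on Mycobacterium tuberculosis, read after 4 days in a medium based on cholesterol and the lipid DPPC; the read-out is not stated. Compounds at 50 µM. Higher reads as more growth inhibition (inferred: compounds with an IC50 in retests scored well above the rest). Of about 69,000 compounds tested this way, about 370 (0.54%) reached 50% or more in at least one test.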

SMILES,Mtb glucose medium,Mtb cholesterol medium
NS(=O)(=O)c1cccnc1Nc1c(Cl)cccc1Cl,-,-45.77
O=C(O)C(F)(F)F.[H][C@@]12CO[C@H](CNS(C)(=O)=O)[C@]1([H])CCN(CCc1ccccc1)C2,-,0.7518
c1cncc(-c2ccc3c(c2)C2(CCNCC2)CC3)c1,-60.78 & -0.8428,-45.13
Cc1cc(C(O)CCNC(=O)COc2ccccc2F)c(C)o1 (stereo not drawn),51 & 27.78,-
Brc1ccc(NCc2ccc(Cn3ccnc3)cc2)nc1,70.19,63.45
CC(C)N1CC(C(=O)NCc2ccc(S(=O)(=O)N(C)C)cc2)CC1=O (stereo not drawn),-,-4.178 & 74.24
CN(C)CC(C)(C)Cn1cnc(-c2ccccc2)c1-c1ncc[nH]1,-9.114 & -7.055,-
CSc1ccc(C(CNC(C)=O)N2CCc3sccc3C2)cc1 (stereo not drawn),26.47,-
Cc1nc(CNC2CCc3nc(C(C)C)nn3C2)oc1C (stereo not drawn),-,6.177
Cn1ccnc1-c1ccc(NCC2COc3ccccc3O2)nn1 (stereo not drawn),54.07,-
Cc1[nH]/c(=N\C(=O)c2csc(NC3CC3)n2)sc1C,-18.85,-10.13
CCc1cnc(N)nc1NC(C)c1ccc(C)c(C)c1 (stereo not drawn),75.18,59.67
O=C(CSCC1CC1)N1CCCN(c2ccc(F)cc2)CC1,17.09 & 2.03,-10.52
O=C(NCC(=O)N1CCCCC1)c1ccoc1,-,-23.71
Cc1nc[nH]c1CN1CCCN(c2nc3ccccc3s2)CC1,14.55,-
CC(NCCn1c(=O)oc2ccccc21)c1ccccn1 (stereo not drawn),-,-25.19
COc1ccc(C(=O)NCCCNc2ncccn2)cc1F,-2.613,4.414
CN(C)c1nc2c(c(N(C)C)n1)CCN(C(=O)CN1CCC(O)CC1)C2,-,-11.77
CC[C@H](C)[C@@H](CO)NC(C)Cc1ccc(C)cc1 (stereo partly drawn),57.37,-
CCOc1ccc2nc(CN3CCC(CNC(C)=O)C3)ccc2c1 (stereo not drawn),-1.281,-
[H][C@@]12CCN(Cc3ccco3)CC[C@]1([H])[C@@H](COCC1CC1)CN(C)C2=O,-9.897 & 3.043,-
CC(C)Oc1ccc(CNC(=O)C2CCS(=O)(=O)C2)cn1 (stereo not drawn),-40.29,-8.315 & 9.045
O=C1NCCCCC1SCc1coc(-c2ccccc2)n1 (stereo not drawn),9.275,-
COc1ccc(CN2CCn3cccc3C2C)cc1F (stereo not drawn),16.06,-
Cc1ncc2c(n1)CCCC2NC(=O)c1ccncc1 (stereo not drawn),-53.07,-
O=C(CCC(=O)N1CCC(Oc2ncccc2Br)CC1)c1ccccc1,69.44,58.14
COc1ccc(CNc2nc(C3CC3)nc3c(C)nn(C)c23)cc1,76.58,-
COc1ccccc1CN(C)C(=O)CN1CC(n2nc(C)cc2C)C1,58.78,-
CN(C)c1nccc(CNC(=O)NC(C)(C)C)n1,13.06,21.92
Cc1ccc(NC2CCN(C(=O)C(C(C)C)n3cncn3)CC2)nn1 (stereo not drawn),7.513 & -5.027,-
COc1ccc(CN2CCC(C(N)=O)C2)c(Br)c1OC (stereo not drawn),-4.458 & -14.44,-
COc1cc(C)nc(N2CCN(C(=O)c3cc(C)no3)CC2)n1,33.82,-
O=C(NCC1COC2(CCOCC2)O1)c1csc(-c2cccc(Cl)c2)n1 (stereo not drawn),50.12,-
Nc1ncccc1C(=O)NCc1cccc(Cl)c1,-19.97,-25.68
CCN(Cc1cnn(C)c1)C[C@H]1CC[C@@H](Cc2ccc(CO)cc2)O1,-,-8.933
CCC1c2ccsc2CCN1C(=O)NCc1ccccn1 (stereo not drawn),19.5,-
CSCc1ccc(C(=O)N2CCN(CC(C)O)CC2)cc1 (stereo not drawn),-1.198,-
O=C(c1coc(COc2cccc3cnccc23)n1)N1CCSCC1,-19.45 & 0.9077,-1.62 & 39.96
O=C(NCCn1ccnc1)c1ccn(-c2ccccc2F)n1,-27.31,4.353
Cc1cc(C(=O)NCc2cc(C)oc2C)no1,-,23.97
CC(C)CNC(=O)c1cc2c(s1)CCN2Cc1cccnc1,-,64.49
Cc1ccsc1-c1cccc(-c2ccn(CC3CCNC3)n2)c1 (stereo not drawn),53.91,54.49
O=C(c1ccc(Br)s1)N1CCN(Cc2ccc(OC(F)(F)F)cc2)CC1,10.07 & 27.83,26.18
CCOC(=O)C1CCN(C(=O)Cn2ccc3cc(Br)ccc32)CC1,-,-13.18
CC(=O)Nc1cc2c(cc1C)OCO2,-3.817 & -31.09,-
CC(=O)N(c1ccc(C)cc1)c1nc(CN2CCCC(C)C2)cs1 (stereo not drawn),33.14,-
COc1ccsc1C(=O)NCCNc1ccccc1,4.748 & 29.02,10.48
COc1cccc(NC(=O)c2nc3ccccc3n(C)c2=O)c1,53.92,-
CC(=O)N1CCN(C(=O)c2ccc(-c3cccc(C)c3)[nH]c2=O)CC1,-8.653 & -11.65,-
C=Cc1ccc(CN2CCCC3(CNC(=O)c4ccccc4O3)C2)cc1 (stereo not drawn),-0.3033,-

Repeated from the top, 6 entries:

NS(=O)(=O)c1cccnc1Nc1c(Cl)cccc1Cl read Mtb cholesterol medium: -45.77%.
O=C(O)C(F)(F)F.[H][C@@]12CO[C@H](CNS(C)(=O)=O)[C@]1([H])CCN(CCc1ccccc1)C2 read Mtb cholesterol medium: 0.7518%.
c1cncc(-c2ccc3c(c2)C2(CCNCC2)CC3)c1 read Mtb glucose medium: -60.78% & -0.8428%; Mtb cholesterol medium: -45.13%.
Cc1cc(C(O)CCNC(=O)COc2ccccc2F)c(C)o1 (stereo not drawn) read Mtb glucose medium: 51% & 27.78%.
Brc1ccc(NCc2ccc(Cn3ccnc3)cc2)nc1 read Mtb glucose medium: 70.19%; Mtb cholesterol medium: 63.45%.
CC(C)N1CC(C(=O)NCc2ccc(S(=O)(=O)N(C)C)cc2)CC1=O (stereo not drawn) read Mtb cholesterol medium: -4.178% & 74.24%.

Data taken from ChEMBL document CHEMBL3988442, “University of Dundee, Small-Polar-MMV Screening Library” (2021).